Compound potency records, mixed from different reports. Data source: NIAID ChemDB in PubChem.

All rows: whole-cell or culture tests; agent: Mycobacterium avium complex; read-out: MIC

Lines come from different laboratories, so protocols vary.

compound	strain	value
CCn1cc(C(=O)O)c(=O)c2cc(F)c(N3CCN(C)CC3)cc21	Isolate 861589	20 µg/mL
NCC[C@H](O)C(=O)N[C@@H]1C[C@H](N)[C@@H](O[C@H]2O[C@H](CN)[C@@H](O)[C@H](O)[C@H]2O)[C@H](O)[C@H]1O[C@H]1O[C@H](CO)[C@@H](O)[C@H](N)[C@H]1O	TMC 1406	0.39 µg/mL
CC1CN(c2c(F)cc3c(=O)c(C(=O)O)cn(C4CC4)c3c2F)CCN1	1760694	4 µg/mL
Fc1cccc(Cl)c1CSc1nc2ccccc2[nH]1	MY330/88	16 µM
CO[C@H]1/C=C/O[C@@]2(C)Oc3c(C)c(O)c4c(O)c(c(/C=N/N5CCN(C)CC5)c(O)c4c3C2=O)NC(=O)/C(C)=C\C=C\[C@H](C)[C@H](O)[C@@H](C)[C@@H](O)[C@@H](C)[C@H](OC(C)=O)[C@@H]1C	13011 (serotype 16)	0.4 µg/mL
NC[C@H]1O[C@H](O[C@H]2[C@H](O)[C@@H](O[C@H]3O[C@H](CO)[C@@H](O)[C@H](N)[C@H]3O)[C@H](N)C[C@@H]2N)[C@H](O)[C@@H](O)[C@@H]1O	N-269 (HIV-)	4 µg/mL
NCC[C@H](O)C(=O)N[C@@H]1C[C@H](N)[C@@H](O[C@H]2O[C@H](CN)[C@@H](O)[C@H](O)[C@H]2O)[C@H](O)[C@H]1O[C@H]1O[C@H](CO)[C@@H](O)[C@H](N)[C@H]1O	541/HIV+	<1.25 µg/mL
C=CCSc1nc2ccccc2[nH]1	MY330/88	500 µM
CC1CN(c2cc3c(cc2F)c(=O)c(C(=O)O)cn3-c2ccc(F)cc2F)CCN1	3211	4 µg/mL
CN[C@@H]1[C@H](O[C@H]2[C@H](O[C@H]3[C@H](O)[C@@H](O)[C@H](N=C(N)N)[C@@H](O)[C@@H]3N=C(N)N)O[C@@H](C)[C@]2(O)C=O)O[C@@H](CO)[C@H](O)[C@H]1O	13011 (serotype 16)	6.25 µg/mL
CO[C@H]1/C=C/O[C@@]2(C)Oc3c(C)c(O)c4c(O)c(c(/C=N/N5CCN(C)CC5)c(O)c4c3C2=O)NC(=O)/C(C)=C\C=C\[C@H](C)[C@H](O)[C@@H](C)[C@@H](O)[C@@H](C)[C@H](OC(C)=O)[C@@H]1C	3214	1 µg/mL
CN[C@@H]1[C@@H](O)[C@@H](O[C@@H]2[C@@H](O)[C@H](O[C@H]3O[C@H](CN)CC[C@H]3N)[C@@H](N)C[C@H]2N)OC[C@]1(C)O	TMC 1469	1.56 µg/mL
CC(C)N=c1cc2n(-c3ccc(Cl)cc3)c3ccccc3nc-2cc1Nc1ccc(Cl)cc1	CH-1/HIV+	0.5 µg/mL
NC[C@@H]1O[C@H](O[C@H]2[C@@H](O)[C@H](O[C@@H]3[C@@H](O)[C@H](N)C[C@H](N)[C@H]3O[C@H]3O[C@H](CO)[C@@H](O)[C@H](O)[C@H]3N)O[C@@H]2CO)[C@H](N)[C@@H](O)[C@@H]1O	Isolate 93	1.56 µg/mL
CO[C@H]1/C=C/O[C@@]2(C)Oc3c(C)c(O)c4c(O)c(c5c(c4c3C2=O)NC2(CCN(CC(C)C)CC2)N=5)=NC(=O)/C(C)=C\C=C\[C@H](C)[C@H](O)[C@@H](C)[C@@H](O)[C@@H](C)[C@H](OC(C)=O)[C@@H]1C	1854-4	0.25 µg/mL
NC[C@@H]1O[C@H](O[C@H]2[C@@H](O)[C@H](O[C@@H]3[C@@H](O)[C@H](N)C[C@H](N)[C@H]3O[C@H]3O[C@H](CO)[C@@H](O)C[C@H]3N)O[C@@H]2CO)[C@H](N)[C@@H](O)[C@@H]1O[C@H]1O[C@H](CO)[C@@H](O)[C@H](O)[C@@H]1O	Isolate 93	3.13 µg/mL
NCC[C@H](O)C(=O)N[C@@H]1C[C@H](N)[C@@H](O[C@H]2O[C@H](CN)[C@@H](O)[C@H](O)[C@H]2O)[C@H](O)[C@H]1O[C@H]1O[C@H](CO)[C@@H](O)[C@H](N)[C@H]1O	733/HIV+	4 µg/mL
NCC1(O)CCN(c2c(F)cc3c(=O)c(C(=O)O)cn(N4CC4)c3c2F)C1	1988557	32 µg/mL
CO[C@H]1/C=C/O[C@@]2(C)Oc3c(C)c(O)c4c(O)c(c(/C=N/N5CCN(C/C=C/c6ccccc6)CC5)c(O)c4c3C2=O)NC(=O)/C(C)=C\C=C\[C@H](C)[C@H](O)[C@@H](C)[C@@H](O)[C@@H](C)[C@H](OC(C)=O)[C@@H]1C	SK46	0.06 µg/mL
NC[C@H]1O[C@H](O[C@H]2[C@H](O)[C@@H](O[C@H]3O[C@H](CO)[C@@H](O)[C@H](N)[C@H]3O)[C@H](N)C[C@@H]2N)[C@H](O)[C@@H](O)[C@@H]1O	Isolate C-37	400 µg/mL
Brc1ccc(CSc2nc3ccccc3[nH]2)cc1	MY330/88	>125 µM
O=C(O)c1cn(C2CC2)c2c(F)c(N3CCC(n4ccnc4)C3)c(F)cc2c1=O	1760694	16 µg/mL
CCCCCCCCCCCCCCCCSc1nc2ccccc2[nH]1	MY330/88	>250 µM
NNC(=O)c1ccncc1	866	>16 µg/mL
Clc1ccccc1CSc1nc2ccccc2[nH]1	MY330/88	62 µM
O=C(O)c1cn(C2CC2)c2c(F)c(N3CC4C(CO)C4C3)c(F)cc2c1=O	1915112	16 µg/mL
CO[C@H]1/C=C/O[C@@]2(C)Oc3c(C)c(O)c4c(O)c(c(/C=N/N5CCN(C)CC5)c(O)c4c3C2=O)NC(=O)/C(C)=C\C=C\[C@H](C)[C@H](O)[C@@H](C)[C@@H](O)[C@@H](C)[C@H](OC(C)=O)[C@@H]1C	827/HIV+	2 µg/mL
NCCC[C@H](N)CC(=O)N[C@H]1CNC(=O)[C@H]([C@H]2C[C@H](O)NC(N)=N2)NC(=O)/C(=C/NC(N)=O)NC(=O)[C@H](CO)NC(=O)[C@H](CO)NC1=O	TMC 1469	6.25 µg/mL
CC[C@H]1OC(=O)[C@H](C)[C@@H](O[C@H]2C[C@@](C)(OC)[C@@H](O)[C@H](C)O2)[C@H](C)[C@@H](O[C@@H]2O[C@H](C)C[C@H](N(C)C)[C@H]2O)[C@](C)(O)C[C@@H](C)C(=O)[C@H](C)[C@@H](O)[C@]1(C)O	3214	16 µg/mL
NC[C@H]1O[C@H](O[C@H]2[C@H](O)[C@@H](O[C@H]3O[C@H](CO)[C@@H](O)[C@H](N)[C@H]3O)[C@H](N)C[C@@H]2N)[C@H](O)[C@@H](O)[C@@H]1O	Isolate 53	6.25 µg/mL
NC1CCN(c2c(F)cc3c(=O)c(C(=O)O)cn(C4CC4)c3c2F)C1	1172733	16 µg/mL
CC[C@@H](CO)NCCN[C@@H](CC)CO	1171	8 µg/mL
O=C(O)c1cn(C2CC2)c2c(F)c(N3CCN4CCC3C4)c(F)cc2c1=O	1760694	2 µg/mL
NC(=S)c1ccc(CSc2nc3ccccc3[nH]2)cc1	MY330/88	32 µM
CCNCC1CN(c2c(F)cc3c(=O)c(C(=O)O)cn(C4CC4)c3c2F)CC1CNCC	PI12/39	32 µg/mL
CCn1cc(C(=O)O)c(=O)c2cc(F)c(N3CCNCC3)nc21	CIPT 14031005	>40 µg/mL
CC1CN(c2c(F)c(N)c3c(=O)c(C(=O)O)cn(C4CC4)c3c2F)CCN1C	1172733	1 µg/mL
Cc1cccc(CSc2nc3ccccc3[nH]2)c1	MY330/88	62 µM

A second listing of 3 rows from above:

compound	strain	value
NC[C@H]1O[C@H](O[C@H]2[C@H](O)[C@@H](O[C@H]3O[C@H](CO)[C@@H](O)[C@H](N)[C@H]3O)[C@H](N)C[C@@H]2N)[C@H](O)[C@@H](O)[C@@H]1O	Isolate C-37	400 µg/mL
Clc1ccccc1CSc1nc2ccccc2[nH]1	MY330/88	62 µM
NC[C@H]1O[C@H](O[C@H]2[C@H](O)[C@@H](O[C@H]3O[C@H](CO)[C@@H](O)[C@H](N)[C@H]3O)[C@H](N)C[C@@H]2N)[C@H](O)[C@@H](O)[C@@H]1O	N-269 (HIV-)	4 µg/mL